PubChem BioAssay AID1224833, University of Georgia, 2016

Aim: 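Human genes whose knock-down alters rotavirus replication in monkey cells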 (primary screen)
System: monkey MA104 kidney cells
Knock-down reagent: siRNA pool against human genes, 50 nM
Duration: 48 h knock-down before infection; read 24 h after infection
Challenge: infection with rotavirus strain RV3 two days after transfection; infectious dose for this stage not given
Measured: 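z-score of rotavirus antigen signal per well, from a fluorescent immunoassay, relative to non-targeting control wells on the same plate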
Reading the numbers: z-score vs non-targeting control: higher = more rotavirus replication than with non-targeting control
Call rule: In these data the active calls have z-score vs non-targeting control at about -1 or lower, or at about 1 or higher
Meaning of the calls: active = z-score beyond 1 either way; inactive = z-score within 1 of zero
The deposit covers about 12,000 reagents; this is a random part of them. In the full data, about 5,600 (46%) got an active call. 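Active calls cover z-scores past 1 in both directions, so they include lowered as well as raised rotavirus replication.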 Entries without a mark were called inactive. Reagent sequences are not shown.

| gene symbol | PubChem SID | z-score vs non-targeting control |
| --- | --- | --- |
| ARL6 | SID329581518 | -0.68 |
| ZBED8L | SID329583605 | 1.07 (active) |
| CARD19 | SID329581570 | -1.51 (active) |
| DOK7 | SID329583935 | 1.06 (active) |
| JPT1 | SID329578940 | -0.687 |
| IL36RN | SID329578402 | 0.912 |
| FAM53B | SID329576722 | 1.06 (active) |
| HAPLN4 | SID329584526 | -1.7 (active) |
| SPTLC3 | SID329579686 | 0.579 |
| TSN | SID329575721 | -1.53 (active) |
| CYB561D1 | SID329583904 | 0.133 |
| REEP5 | SID329575966 | -2.35 (active) |
| PDE6H | SID329574782 | 1.13 (active) |
| SRSF3 | SID329575304 | 0.838 |
| PIGZ | SID329581186 | -0.709 |
| C6orf163 | SID329583482 | 0.556 |
| FAXC | SID329581657 | 0.655 |
| NBPF11 | SID329583396 | -1.09 (active) |
| SPTAN1 | SID329575475 | -0.365 |
| ITGBL1 | SID329576548 | -1.43 (active) |
| COX14 | SID329581810 | 1.29 (active) |
| DMGDH | SID329578739 | -1.9 (active) |
| PTX3 | SID329575021 | -0.467 |
| LDAH | SID329580483 | 0.628 |
| RBFOX2 | SID329578048 | -1.97 (active) |
| TOMM22 | SID329580127 | 1.2 (active) |
| CCDC69 | SID329578316 | -1.58 (active) |
| RALA | SID329575064 | -1.65 (active) |
| LUC7L3 | SID329579194 | -0.463 |

9 of these entries in another layout:
gene symbol | PubChem SID | z-score vs non-targeting control
ARL6 | SID329581518 | -0.68
ZBED8L | SID329583605 | 1.07 (active)
CARD19 | SID329581570 | -1.51 (active)
DOK7 | SID329583935 | 1.06 (active)
JPT1 | SID329578940 | -0.687
IL36RN | SID329578402 | 0.912
FAM53B | SID329576722 | 1.06 (active)
HAPLN4 | SID329584526 | -1.7 (active)
SPTLC3 | SID329579686 | 0.579

Additional records follow:
| gene symbol | PubChem SID | z-score vs non-targeting control |
| --- | --- | --- |
| TRABD | SID329581199 | -1.84 (active) |
| FAM234B | SID329580321 | 1.2 (active) |
| TCF7L2 | SID329575584 | -1.39 (active) |
| KIF18A | SID329581377 | 1.19 (active) |
| COA1 | SID329579845 | 1.93 (active) |
| NOB1 | SID329578627 | -0.213 |
| PRAP1 | SID329582364 | -0.133 |
| PCSK5 | SID329574769 | 0.941 |
| PLCD3 | SID329582178 | 1.66 (active) |
| STC1 | SID329575512 | -0.295 |
| RPL26L1 | SID329578922 | 0.0648 |
| AXIN2 | SID329576056 | -0.493 |
| HERPUD1 | SID329576744 | 0.419 |
| ANKRD11 | SID329578674 | -1.67 (active) |
| TNFRSF6B | SID329576279 | -1.19 (active) |
| KPNA5 | SID329574231 | -1.26 (active) |
| WFDC10A | SID329582827 | -0.0735 |
| EBNA1BP2 | SID329577456 | 0.524 |
| OR5P2 | SID329582396 | -1.63 (active) |
| OR5M10 | SID329584398 | -0.719 |
| BTG3 | SID329577446 | -0.145 |
| TMIE | SID329583772 | -1.25 (active) |
| INHBE | SID329581448 | -0.878 |
| MYCT1 | SID329581164 | -0.418 |
| KISS1 | SID329574216 | -5.36 (active) |
| MATR3 | SID329576791 | 0.428 |
| USP24 | SID329577954 | 1.85 (active) |
| ID4 | SID329574083 | -1.92 (active) |
| ADAM18 | SID329576274 | 1.11 (active) |
| ATG9B | SID329583960 | -0.29 |
| MPEG1 | SID329583541 | 0.405 |
| SIDT1 | SID329579424 | -1.14 (active) |
| BAZ1A | SID329577584 | -0.138 |
| GALNT13 | SID329582230 | 2.19 (active) |
| TCF7 | SID329575583 | -2.1 (active) |
| FGF6 | SID329573637 | -2.18 (active) |
| OR5D16 | SID329584391 | -0.0178 |
| BYSL | SID329572950 | 1.6 (active) |
| CCDC126 | SID329581968 | 1.5 (active) |
| VNN1 | SID329576331 | -0.937 |
| MATCAP2 | SID329577960 | 0.257 |
| MATN3 | SID329574396 | -0.382 |
| PRDM4 | SID329577539 | 0.739 |
| RAET1E | SID329582725 | -1.45 (active) |
| PREX1 | SID329580305 | -0.542 |
| APOC4 | SID329572790 | 0.605 |
